A mixed list of measured activities; the numbers were collected in NIAID ChemDB.

Common to all: target-level tests; agent: HIV-1; target: Reverse transcriptase; endpoint: fold resistance

a–b is a range or a potency band.

SMILES | strain | changes | read by | result
Cc1cc(S(N)(=O)=O)ccc1NC(=O)COc1ccccc1C(=O)c1cc(Cl)cc(C#N)c1 | NNRTI-resistant | RT-Y181C | nucleotide incorporation / radiometric | 0.7
CCc1ccc(-n2c(Br)nnc2SCC(=O)Nc2ccc(C(=O)O)cc2C)c2ccccc12 | - | RT-Y188L | nucleotide incorporation / radiometric | >2
NCCCCNc1nc(Cc2ccccc2)cc(=O)[nH]1 | - | RT-Y188L | - | >14.3
CCN1c2ncc(CCOc3ccc(CC(C)C(=O)O)c4ccccc34)cc2C(=O)N(C)c2ccc(Cl)nc21 | - | RT-K103N Y181C | nucleotide incorporation / radiometric | 1–10
CCc1ccc(-n2c(Br)nnc2SCC(=O)Nc2ccc(C(=O)O)cc2Br)c2ccccc12 | - | RT-Y188L | nucleotide incorporation / radiometric | >1
Cc1cc(S(N)(=O)=O)ccc1NC(=O)CSc1nnc(Br)n1-c1ccc(F)c2ccccc12 | - | RT-Y181C | nucleotide incorporation / radiometric | >2
O=c1cc(Cc2ccccc2)nc(SCCCCO)[nH]1 | - | RT-L100I | - | 2
CCN1c2ncc(CCOc3ccc(S(=O)(=O)NC(C)=O)c4ccccc34)cc2C(=O)N(C)c2cccnc21 | - | RT-Y188L | nucleotide incorporation / radiometric | >10
O=C(CSc1nnc(Br)n1-c1ccc(C2CC2)cc1C(F)(F)F)Nc1ccc(C(=O)O)cc1Cl | - | RT-Y188L | nucleotide incorporation / radiometric | >2
O=C(CSc1nnc(Br)n1-c1ccc(C2CCC2)c2ccccc12)Nc1ccc(C(=O)O)cc1Cl | - | RT-Y188L | nucleotide incorporation / radiometric | >2
CCN1c2ncc(CCOc3ccc(NS(=O)(=O)C(F)(F)F)c4ccccc34)cc2C(=O)N(C)c2ccc(F)nc21 | - | RT-Y188L | nucleotide incorporation / radiometric | >10
COC(=O)NCCCCNc1nc(Cc2ccccc2)c(C)c(=O)[nH]1 | - | RT-K103N | - | >43.5
CCc1ccc(-n2c(Br)nnc2SCC(=O)Nc2ccc(C(=O)NCC(=O)OC)cc2Cl)c2ccccc12 | - | RT-Y188L | nucleotide incorporation / radiometric | >1
CCN1c2ncc(CCOc3ccc(C(C)C(=O)O)c4ccccc34)cc2C(=O)N(C)c2cccnc21 | - | RT-K103N Y181C | nucleotide incorporation / radiometric | 1–10
NS(=O)(=O)c1ccc(NC(=O)CSc2nncn2-c2ccc(C3CC3)c3ccccc23)c(Cl)c1 | - | RT-Y188L | nucleotide incorporation / radiometric | >2
CCc1cc(C2CC2)ccc1-n1c(Br)nnc1SCC(=O)Nc1ccc(C(=O)O)cc1Cl | - | RT-Y181C | nucleotide incorporation / radiometric | >1
CNS(=O)(=O)c1ccc(NC(=O)CSc2nnc(C(F)F)n2-c2ccc(C)c3ccccc23)c(Cl)c1 | - | RT-Y188L | nucleotide incorporation / radiometric | >2
CCc1cc(CCc2nc3ccccc3o2)c(=O)[nH]c1C | - | RT-K103N Y181C Y188C | nucleotide incorporation | >3000
Cc1cc(S(N)(=O)=O)ccc1NC(=O)CSc1nnc(Br)n1-c1ccc(C2CCC2)c2ccccc12 | - | RT-Y188L | nucleotide incorporation / radiometric | >2
CCN1c2ncc(CCOc3ccc(C(=O)O)c4c3CCC4)cc2C(=O)N(C)c2ccc(Cl)nc21 | - | RT-Y188L | nucleotide incorporation / radiometric | 1–10
CCc1ccc(-n2c(Br)nnc2SCC(=O)Nc2ccc(C(=O)N3CCC(O)CC3)cc2Cl)c2ccccc12 | - | RT-Y188L | nucleotide incorporation / radiometric | >2
CCN1c2ncc(CCOc3ccc(CC(C)C(=O)O)c4ccccc34)cc2C(=O)Nc2c(C)ccnc21 | - | RT-K103N Y181C | nucleotide incorporation / radiometric | >10
COC(=O)[C@@H](NC(=O)c1ccc(NC(=O)CSc2nnc(Br)n2-c2ccc(C3CC3)c3ccccc23)c(Cl)c1)C(C)C | - | RT-Y188L | nucleotide incorporation / radiometric | >1
CCN1c2ncc(CCOc3ccc(C(=O)O)c4c3CCC4)cc2C(=O)N(C)c2cccnc21 | - | RT-K103N Y181C | nucleotide incorporation / radiometric | 1–10
O=C(CSc1nnc(Br)n1-c1c(Cl)cc(C2CCC2)c2ccccc12)Nc1ccc(C(=O)O)cc1Cl | - | RT-Y188L | nucleotide incorporation / radiometric | >1
CCc1ccc(-n2c(Br)nnc2SCC(=O)Nc2ccc(C(=O)O)cc2Br)c2ccccc12 | - | RT-Y188L | nucleotide incorporation / radiometric | >1
NC(=O)c1[nH]c2ccc(Cl)cc2c1S(=O)(=O)c1ccccc1 | - | RT-V179D | nucleotide incorporation / radiometric | 35
Cc1ccc2c(C)cc(C)c(-n3c(SCC(=O)Nc4ccc(S(N)(=O)=O)cc4Cl)nnc3C(F)F)c2n1 | - | RT-Y188L | nucleotide incorporation / radiometric | >2
CCN1c2ncc(CCOc3ccc(CC(=O)O)c4ccccc34)cc2C(=O)N(C)c2cccnc21 | - | RT-V106A | nucleotide incorporation / radiometric | >10
NS(=O)(=O)c1ccc(NC(=O)CSc2nnc(Br)n2-c2ccc(F)c3ccccc23)c(Cl)c1 | - | RT-Y188L | nucleotide incorporation / radiometric | >2
CCN1c2ncc(CCOc3ccc(CC(=O)O)c4ccccc34)cc2C(=O)N(C)c2ccc(Cl)nc21 | - | RT-Y188L | nucleotide incorporation / radiometric | >10
Cc1cc(C)cc(S(=O)(=O)c2c(C(N)=O)[nH]c3ccc(Cl)cc23)c1 | - | RT-K103N | nucleotide incorporation / radiometric | 1
CCc1ccc(-n2c(C)nnc2SCC(=O)Nc2ccc(S(N)(=O)=O)cc2C)c2ccccc12 | - | RT-Y181C | nucleotide incorporation / radiometric | >2

Neighbouring rows are from separate reports. An empty or dashed field is not shown. Fold resistance has wild type as its base.